Results of unrelated studies side by side (data: NIAID ChemDB).

All rows: whole-cell or culture tests; agent: HIV-2; cells: MT-4; read-out: EC50

An empty or dashed field is not shown. ECn is the concentration giving n% inhibition of infection, replication or growth. Neighbouring rows are from separate reports.

SMILES,strain or isolate,changes,read by,result
C/C=C(/C)C(=O)O[C@@H]1[C@@H](C)[C@@]2(O)[C@@H](C=C(CO)C[C@]3(O)C(=O)C(C)=C[C@@H]23)[C@@H]2C(C)(C)[C@]12OC(C)=O,ROD,-,MTT,0.003 µM
c1ccc(C2OCc3nc4ccccc4n32)cc1,ROD,-,cytopathic effect / MTT,>16.9 µM
COc1cc(-c2ccc(C#N)cc2)ccc1Oc1nc(Nc2ccc(C#N)cc2)nc2ccsc12,ROD,-,MTT,57.5 µM
CCCC(=O)O[C@@H]1[C@@H](C)[C@@]2(O)[C@@H](CC(=O)C[C@]3(O)C(=O)C(C)=C[C@@H]23)[C@@H]2C(C)(C)[C@]12OC(=O)CCC,ROD,-,MTT,>35 µM
Fc1cccc(F)c1[C@H]1SCc2nc3ccccc3n21,ROD,-,cytopathic effect / MTT,>25 µg/mL
Cc1ccnc2c1NC(=O)c1cccnc1N2C1CC1,ROD,-,MTT,>15.02 µM
Cn1ncc2c1S(=O)(=O)N(CCc1ccccc1)C(=O)N2CCc1ccc(C(C)(C)C)cc1,ROD,-,MTT,18.7 µM
C[C@@H](Cn1cnc2c(N)ncnc21)OCP(=O)(O)O,ROD,-,cytopathic effect / trypan blue,217 µM
COc1ccc2nc3n(c2c1)C(c1c(F)cccc1F)SC3,ROD,-,cytopathic effect / MTT,>392 µM
Cc1ccnc2c1NC(=O)c1cccnc1N2C1CC1,ROD,-,MTT / absorbance,>4 µM
COc1ccc2c(c1)nc1n2C(c2c(Cl)cccc2Cl)SC1,ROD,-,cytopathic effect / MTT,>1.7 µM
CC1=C[C@H]2[C@@]3(O)[C@H](C)[C@@H](O)[C@]4(O)[C@H]([C@@H]3C=C(O)C[C@]2(O)C1=O)C4(C)C,ROD,-,MTT,>343 µM
O=C(NC1CCN(C(=O)c2ccccc2)CC1)c1cc(O)c(O)c(O)c1,ROD,-,MTT,>38.3 µM
N#Cc1ccc(Nc2nc(Oc3ccc(-c4ccc(C#N)cc4)c(F)c3)c3sccc3n2)cc1,ROD,-,MTT,36.5 µM
Cc1ccc(S(=O)(=O)N2CCC(NC(=O)c3cc(O)c(O)c(O)c3)CC2)cc1,ROD,-,MTT,>66.1 µM
COc1cc(/C=N/NC(=O)c2csc(N3N=C(c4ccccc4)CC3c3ccc(Cl)cc3)n2)ccc1O,ROD,-,MTT / absorbance,>60.1 µM
C#Cc1ccc(Nc2nccc(Oc3c(C)cc(-c4cn(CC(=O)Nc5ccc(S(C)(=O)=O)cc5)nn4)cc3C)n2)cc1,ROD,-,MTT,>6.36 µM
COc1ccc2c(c1)nc1n2C(c2c(F)cccc2F)SC1,ROD,-,cytopathic effect / MTT,>7.8 µM
O=C(N/N=C/c1ccc(Cl)cc1Cl)c1csc(N2N=C(c3ccccc3)CC2c2ccc(Cl)cc2)n1,ROD,-,MTT / absorbance,>94.9 µM
Cn1ncc2c1S(=O)(=O)N(CCc1ccccc1)C(=O)N2CCC#N,ROD,-,MTT,>209.4 µM
O=C(N/N=C/c1ccc(OCc2ccccc2)cc1)c1csc(N2N=C(c3ccccc3)CC2c2ccc(Cl)cc2)n1,ROD,-,MTT / absorbance,>125 µM
C#Cc1ccc(Nc2nccc(Oc3c(C)cc(-c4cn(Cc5ccc(C#N)cc5)nn4)cc3C)n2)cc1,ROD,-,MTT,>7.17 µM
O=C(N/N=C/c1c(Cl)cccc1Cl)c1csc(N2N=C(c3ccccc3)CC2c2ccc(Cl)cc2)n1,ROD,-,MTT / absorbance,>6.26 µM
Fc1ccc2c(c1)nc1n2C(c2c(Cl)cccc2Cl)SC1,ROD,-,cytopathic effect / MTT,>13.3 µM
CC(C)(C)OC(=O)N1CCC(NC(=O)c2cc(O)c(O)c(O)c2)CC1,ROD,-,MTT,>42.9 µM
Fc1ccc2nc3n(c2c1)C(c1c(Cl)cccc1Cl)SC3,ROD,-,cytopathic effect / MTT,>368 µM
Cn1ncc2c1S(=O)(=O)N(CCc1ccccc1Br)C(=O)N2CCc1ccccc1Br,ROD,-,MTT,>231.5 µM
COc1cccc(C(=O)N2CCC(NC(=O)c3cc(O)c(O)c(O)c3)CC2)c1,ROD,-,MTT,>76.6 µM
CC(C)Nc1cccnc1N1CCN(C(=O)c2cc3cc(NS(C)(=O)=O)ccc3[nH]2)CC1,EHO,-,cytopathic effect / MTT,2.1 µM
CC(=O)O[C@@H]1[C@@H](C)[C@@]2(O)[C@@H](C=C(O)C[C@]3(O)C(=O)C(C)=C[C@@H]23)[C@@H]2C(C)(C)[C@]12O,ROD,-,MTT,>307 µM
COc1ccccc1C(=O)N1CCC(NC(=O)c2cc(O)c(O)c(O)c2)CC1,ROD,-,MTT,>147.2 µM
C=S(=C)(N)c1ccc(CN2CCC(Nc3nc(Nc4c(C)cc(C)cc4C)c4[nH]cnc4n3)CC2)cc1,ROD,-,MTT,>23.89 µM
C#Cc1ccc(Nc2nccc(Oc3c(C)cc(-c4cn(-c5ccc(C(=O)O)cc5)nn4)cc3C)n2)cc1,ROD,-,MTT,>33.17 µM
Cc1ccc(CCN2C(=O)N(CCc3ccc(C)cc3)S(=O)(=O)c3c2cnn3C)cc1,ROD,-,MTT,>304.9 µM
C#Cc1ccc(Nc2nccc(Oc3c(C)cc(-c4cn(CC(=O)Nc5ccc(F)cc5)nn4)cc3C)n2)cc1,ROD,-,MTT,>1.41 µM
C[C@H](Cn1cnc2c(N)ncnc21)OCP(=O)(O)O,ROD,-,cytopathic effect / trypan blue,4.9 µM
COc1ccc2nc3n(c2c1)C(c1c(F)cccc1Cl)SC3,ROD,-,cytopathic effect / MTT,>373 µM
CCOCn1c(Cc2ccccc2)c(C(C)C)c(=O)[nH]c1=O,EHO,RT-S102L,cytopathic effect / MTT,25.8 µM
N#Cc1ccc(Nc2nc(Oc3ccc(-c4ccc(C#N)cc4)c(Cl)c3)c3sccc3n2)cc1,ROD,-,MTT,75.8 µM
Cc1cc(C)c(Nc2nc(NC3CCN(Cc4cccc(C#N)c4)CC3)nc3nc[nH]c23)c(C)c1,ROD,-,MTT,>25.4 µM
Fc1cccc(F)c1C1OCc2nc3ccccc3n21,ROD,-,cytopathic effect / MTT,>27.7 µM
N#Cc1ccc(Nc2nc(Oc3ccc(-c4ccc(C#N)cc4)cc3)c3sccc3n2)cc1,ROD,-,MTT,41.1 µM
FC(F)(F)c1ccc2c(c1)nc1n2C(c2c(Cl)cccc2Cl)SC1,ROD,-,cytopathic effect / MTT,>25.9 µM
CC(=O)c1ccc(C)cc1NC(C(N)=O)c1c(Cl)cccc1Cl,EHO,RT-S102L,cytopathic effect / MTT,13.4 µM
Cc1cc(C)c(Nc2nc(NC3CCN(Cc4cccnc4)CC3)nc3nc[nH]c23)c(C)c1,ROD,-,MTT,>132 µM
Cc1ccnc2c1NC(=O)c1cccnc1N2C1CC1,ROD,-,MTT,>4 µM
Cc1cc(C)c(Nc2nc(NC3CCN(Cc4ccc(Br)cc4)CC3)nc3nc[nH]c23)c(C)c1,ROD,-,MTT,>11.45 µM
Fc1cc2nc3n(c2cc1F)C(c1c(Cl)cccc1Cl)SC3,ROD,-,cytopathic effect / MTT,>17.6 µM
O=C(N/N=C/c1ccccc1O)c1csc(N2N=C(c3ccccc3)CC2c2ccc(Cl)cc2)n1,ROD,-,MTT / absorbance,>7.33 µM
COc1ccc(C(=O)N2CCC(NC(=O)c3cc(O)c(O)c(O)c3)CC2)cc1,ROD,-,MTT,>85.7 µM
Cc1cn([C@H]2C[C@H](N=[N+]=[N-])[C@@H](CO)O2)c(=O)[nH]c1=O,ROD,-,MTT,0.013 µM
COc1ccc(S(=O)(=O)N2CCC(NC(=O)c3cc(O)c(O)c(O)c3)CC2)cc1,ROD,-,MTT,>130.5 µM
COC(=O)c1ccc(CN2CCC(Nc3nc(Nc4c(C)cc(C)cc4C)c4[nH]cnc4n3)CC2)cc1,ROD,-,MTT,>24.06 µM

Again, the opening 5 rows:

C/C=C(/C)C(=O)O[C@@H]1[C@@H](C)[C@@]2(O)[C@@H](C=C(CO)C[C@]3(O)C(=O)C(C)=C[C@@H]23)[C@@H]2C(C)(C)[C@]12OC(C)=O ; strain or isolate: ROD ; read by: MTT ; result: 0.003 µM
c1ccc(C2OCc3nc4ccccc4n32)cc1 ; strain or isolate: ROD ; read by: cytopathic effect / MTT ; result: >16.9 µM
COc1cc(-c2ccc(C#N)cc2)ccc1Oc1nc(Nc2ccc(C#N)cc2)nc2ccsc12 ; strain or isolate: ROD ; read by: MTT ; result: 57.5 µM
CCCC(=O)O[C@@H]1[C@@H](C)[C@@]2(O)[C@@H](CC(=O)C[C@]3(O)C(=O)C(C)=C[C@@H]23)[C@@H]2C(C)(C)[C@]12OC(=O)CCC ; strain or isolate: ROD ; read by: MTT ; result: >35 µM
Fc1cccc(F)c1[C@H]1SCc2nc3ccccc3n21 ; strain or isolate: ROD ; read by: cytopathic effect / MTT ; result: >25 µg/mL